A mixed list of measured activities; the numbers were collected in NIAID ChemDB.

Shared fields: whole-cell or culture tests; organism: Herpes simplex virus 1

ECn: concentration that inhibits the pathogen or its effect by n%. Blank or dashed fields: not listed here. a–b is a range or a potency band. Conditions beyond the fields shown may differ between rows.

SMILES,method,read-out,cell line,strain,value
O=c1[nH]c(=O)n([C@H]2C[C@H](O)[C@@H](CO)O2)cc1I,cytopathic effect,EC50,HEP-2,KOS,0.7 µg/mL
C=C[C@@H](O)C1=C[C@@H](n2cnc3c(N)ncnc32)[C@H](O)[C@@H]1O,cytopathic effect,EC50,E6SM,B2006 (TK-),>200 µg/mL
O=c1[nH]c(=O)n([C@@H]2O[C@H](CO)[C@@H](O)[C@@H]2O)cc1/C=C/Br,plaque count,EC50,CCRF-HSB-2,VR-3,0.072 µM
CC(C)CC(=O)N[C@H](C(=O)N[C@H](C(=O)N[C@@H](CC(C)C)[C@@H](O)CC(=O)N[C@@H](C)C(=O)N[C@@H](CC(C)C)[C@@H](O)CC(=O)O)C(C)C)C(C)C,plaque count,EC50,CV-1,Fukuda,>40 µM
Nc1ccn(COCCO)c(=O)n1,cytopathic effect,EC50,PRK,-,70 µg/mL
O=C1CC(c2ccccc2)n2nc(-c3ccc4ccccc4c3)nc2N1,plaque count,EC50,VERO,7401H,>50 µg/mL
CC1(C)C(OC2O[C@H](C(=O)O)[C@@H](O)[C@H](N[C@@H]3O[C@H](CO)[C@H](O)[C@H](O)[C@H]3O)[C@H]2OC2O[C@H](O)[C@@H](O)[C@H](O)[C@H]2C(=O)O)CC[C@@]2(C)C1CC[C@]1(C)C2C(=O)C=C2C3C[C@@](C)(C(=O)O)CC[C@]3(C)CC[C@]21C,cytopathic effect,EC50,VERO,-,16 µg/mL
Cc1nc(N2CC[N+]3(CC2)CC[N+]2(CCNCC2)CC3)c([N+](=O)[O-])c(N2CC[N+]3(CC2)CC[N+]2(CCNCC2)CC3)n1,cytopathic effect,EC50,GMK,-,1.48 µg/mL
O=c1[nH]c(=O)n(COCCO)cc1Cl,cytopathic effect,EC50,PRK,-,>400 µg/mL
Cn1cc(NC(=O)c2cc(NC(=O)c3cc(NC=O)cn3C)cn2C)cc1C(=O)NCCC#N,plaque count,EC50,BSC-1,-,<200 µg/mL
Nc1nc(=O)n([C@@H]2O[C@H](CO)[C@@H](O)[C@@H]2F)cc1I,cytopathic effect,EC50,PRK,KOS,0.02 µg/mL
CCn1nc(-c2ccc(Cn3ccc4ccccc43)cc2)nc1C,-,MIC,-,TK (KOS ACV),80 µg/mL
O=c1[nH]c(=O)n([C@@H]2S[C@H](CO)[C@@H](O)[C@@H]2F)cc1I,plaque count,EC50,CCRF-HSB-2,VR-3,0.046 µM
Nc1nc2c(ncn2N2C[C@H](CO)[C@H]2CO)c(=O)[nH]1,cytopathic effect,EC50,VERO,-,5.36 µg/mL
O=c1ccn(COCCO)c(=O)[nH]1,cytopathic effect,EC50,PRK,-,>400 µg/mL
C1CN(CC2CO2)CC[N+]2(C1)CC[N+]1(CCCN(CC3CO3)CC1)CC2,cytopathic effect,EC50,GMK,-,14.02 µg/mL
O=C(NCc1ccc(Cl)cc1)c1c[nH]c2ccc(C#CCO)cc2c1=O,plaque count,EC50,-,MAC,18 µM
Nc1ncnc2c1ncn2C1OC[C@H](CO)[C@H]1CO,cytopathic effect,EC50,VERO,-,>100 µg/mL
CCc1cn([C@@H]2S[C@H](CO)[C@@H](O)[C@@H]2F)c(=O)[nH]c1=O,plaque count,EC50,CCRF-HSB-2,VR-3,0.052 µM
O=c1[nH]c(=O)n([C@H]2C[C@H](O)[C@@H](COP(=O)(O)O)O2)cc1/C=C/c1cccc([N+](=O)[O-])c1,cytopathic effect,EC50,PRK,F,>100 µg/mL
CCSC1NN=C(Cc2nc(C)n(C)n2)N1c1ccccc1,-,MIC,-,KOS,400 µg/mL
O=C1c2ccccc2C(=O)N1CCC1=NNC(=Nc2ccccc2)SC1,cytopathic effect,EC50,VERO,VR733,>111 µg/mL
CCCCCc1nc2n(n1)C(c1ccc([N+](=O)[O-])cc1)CC(=O)N2,plaque count,EC50,VERO,7401H,>50 µg/mL
O=c1[nH]c(=O)n([C@H]2C[C@H](O)[C@@H](CO)O2)cc1/C=C/Br,cytopathic effect,EC50,Primary rabbit kidney cells,F,0.01 µg/mL
O=[N+]([O-])c1c(N2CC[N+]3(CC2)CC[N+]2(CCNCC2)CC3)ncnc1N1CC[N+]2(CC1)CC[N+]1(CCNCC1)CC2,cytopathic effect,EC50,GMK,-,5.67 µg/mL
O=C1c2ccccc2C(=O)N1CC1=NNC(=Nc2ccccc2)SC1,cytopathic effect,EC50,VERO,VR733,>111 µg/mL
O=c1[nH]c(=O)n([C@H]2C[C@H](O)[C@@H](CO)O2)cc1Br,cytopathic effect,EC50,Primary rabbit kidney cells,-,0.32 µM
O=C1CC(c2ccccc2)n2nc(-c3ccncc3)nc2N1,plaque count,EC50,VERO,7401H,>50 µg/mL
Nc1ncnc2c1ncn2COCCO,cytopathic effect,EC50,PRK,-,10 µg/mL
O=[N+]([O-])c1c(Cl)nc(C(F)(F)F)nc1N1CC[N+]2(CC1)CC[N+]1(CCN(c3nc(C(F)(F)F)nc(Cl)c3[N+](=O)[O-])CC1)CC2,cytopathic effect,EC50,GMK,-,24.55 µg/mL
Nc1nc2c(ncn2C/C=C\CO)c(=O)[nH]1,plaque count,EC50,Primary mouse cells,C42,0.2 µM
Nc1nc2c(nc(N3CCCCC3)n2COCCO)c(=O)[nH]1,cytopathic effect,EC50,PRK,-,70 µg/mL
Cc1nc(N(C)C(=O)Cc2ccc(-c3ccccn3)cc2)sc1S(N)(=O)=O,plaque count,EC50,VERO,KT2,0.04 µM
Cc1nc(CC(=O)NN)nn1C,-,MIC,-,KOS,>400 µg/mL
Cc1cn([C@H]2S[C@@H](CO)[C@H](O)[C@H]2F)c(=O)[nH]c1=O,plaque count,EC50,CCRF-HSB-2,VR-3,1.56 µM
CCn1nc(CC(=O)NN=C(C)C)nc1C,-,MIC,-,TK (KOS ACV),>400 µg/mL
Nc1ccn([C@@H]2C[C@H](CO)[C@@H](O)[C@H]2O)c(=O)n1,cytopathic effect,EC50,PRK,B2006 (TK-),4 µg/mL
CCCCCCCC/C=C\CCCCCCCOCCCOP1(=O)CO[C@@H](Cn2ccc(N)nc2=O)CO1,plaque count,EC50,HFF,E-377,0.05 µM
O=c1[nH]c(=O)n([C@H]2C[C@H](O)[C@@H](CO)O2)cc1F,cytopathic effect,EC50,Primary rabbit kidney cells,-,0.16 µM
CCCCCCCC/C=C\CCCCCCCOCCCOP(=O)(O)CO[C@H](CO)Cn1ccc(N)nc1=O,plaque count,EC50,HFF,HL-3,0.04 µM
O=C1CC(c2ccc([N+](=O)[O-])cc2)n2nc(-c3cccnc3)nc2N1,plaque count,EC50,VERO,7401H,>50 µg/mL
CC(C)C[C@H](NC(=O)[C@@H]1O[C@H]1C(=O)O)C(=O)NCCCCN=C(N)N,plaque count,EC50,CV-1,Fukuda,20–40 µM
O=c1[nH]c(=O)n([C@@H]2O[C@H](CO)[C@@H](O)[C@@H]2F)cc1/C=C/Br,plaque count,EC50,CCRF-HSB-2,VR-3,0.14 µM
CC(C1=NN=C(N(C)C)SC1)N1C(=O)c2ccccc2C1=O,cytopathic effect,EC50,VERO,VR733,>111 µg/mL
CCCCCCCCCCCCCCCCOP(=O)(O)CO[C@H](CO)Cn1ccc(N)nc1=O,plaque count,EC50,HFF,E-377,0.3 µM
C#C[C@@H](O)C1=C[C@@H](n2cnc3c(N)ncnc32)[C@H](O)[C@@H]1O,cytopathic effect,EC50,E6SM,B2006 (TK-),>400 µg/mL
N#Cc1cn([C@H]2C[C@H](O)[C@@H](CO)O2)c(=O)[nH]c1=O,cytopathic effect,EC50,Primary rabbit kidney cells,-,160 µM
Nc1ccn([C@@H]2O[C@H](CO)[C@@H](O)[C@@H]2O)c(=O)n1,cytopathic effect,EC50,HEL,KOS,0.01 µg/mL
O=c1[nH]c(=O)n([C@H]2C[C@H](O)[C@@H](CO)O2)cc1I,cytopathic effect,EC50,PRK,F,0.1 µg/mL
CCn1nc(Cc2n[nH]c(=S)o2)nc1C,-,MIC,-,TK (KOS ACV),>400 µg/mL
Nc1ccn(C[C@H]2COP(=O)(O)CO2)c(=O)n1,plaque count,EC50,HFF,E-377,15.2 µM
Cc1cn([C@@H]2O[C@H](CO)[C@@H](O)[C@@H]2F)c(=O)[nH]c1=O,plaque count,EC50,CCRF-HSB-2,VR-3,0.085 µM
Nc1nc2c(ncn2CC(CO)CCO)c(=O)[nH]1,plaque count,EC50,VERO,KJ502,0.3 µM
CC(C)Nc1nc2cc(Cl)c(Cl)cc2n1[C@@H]1O[C@@H](CO)[C@H](O)[C@H]1O,ELISA,EC50,HFF,-,>100 µM
Cn1cc(NC(=O)c2cc(NC(=O)c3cc([N+](=O)[O-])cn3C)cn2C)cc1C(=O)NCCC(=N)N,plaque count,EC50,BSC-1,-,<200 µg/mL
O=C1CC(c2ccc([N+](=O)[O-])cc2)n2nc(-c3ccc4ccccc4c3)nc2N1,plaque count,EC50,VERO,7401H,>50 µg/mL
NNC(=O)Cc1nc2n(n1)CCCCC2,-,MIC,-,TK (KOS ACV),>400 µg/mL
Nc1nc2c(ncn2CCC(CO)CO)c(=O)[nH]1,plaque count,EC50,MRC-5,Clinical isolate,0.6 µg/mL
OC[C@@H]1O[C@@H](n2c(Br)nc3cc(Cl)c(Cl)cc32)[C@H](O)[C@H]1O,ELISA,EC50,HFF,-,>100 µM
CC(C1=NNC(=Nc2ccccc2)SC1)N1C(=O)c2ccccc2C1=O,cytopathic effect,EC50,VERO,VR733,77.04 µg/mL
CCCCCCCCCCCCCCCCCOC[C@H](COP1(=O)CO[C@@H](Cn2ccc(N)nc2=O)CO1)OCc1ccccc1,plaque count,EC50,HFF,E-377,0.4 µM
CC(C1=NN=C(N(Cc2ccccc2)c2ccccc2)SC1)N1C(=O)c2ccccc2C1=O,cytopathic effect,EC50,VERO,VR733,47.72 µg/mL
Nc1nc2c(nc(N)n2COCCO)c(=O)[nH]1,cytopathic effect,EC50,PRK,-,0.7 µg/mL
CC(C1=NNC(=NC2CCCCC2)SC1)N1C(=O)c2ccccc2C1=O,cytopathic effect,EC50,VERO,VR733,>111 µg/mL
Nc1nc2c(ncn2COC2COP(=O)(O)OC2)c(=O)[nH]1,cytopathic effect,EC50,VERO,-,3.35 µM
Cc1cn(N2C[C@H](CO)[C@H]2CO)c(=O)[nH]c1=O,cytopathic effect,EC50,VERO,-,>100 µg/mL
Nc1ncnc2c1ncn2[C@@H]1O[C@H](CO)[C@@H](O)[C@@H]1O,cytopathic effect,EC50,T-21,KOS,7 µg/mL
Nc1ncnc2c1ncn2C1SC[C@H](CO)[C@H]1CO,cytopathic effect,EC50,VERO,-,>100 µg/mL
Nc1nc2c(ncn2COCCO)c(=O)[nH]1,-,EC50,VERO,-,0.8 µg/mL
CCCCC(C)(C)[C@H](O)/C=C/[C@H]1C=CC(=O)[C@@H]1CCCCCCC(=O)O,hybridisation,EC50,VERO,H129,5.6 µg/mL
Cn1cc(NC=O)cc1C(=O)Nc1cc(C(=O)Nc2cc(C(=O)Nc3cccc(C(=N)N)c3)n(C)c2)n(C)c1,plaque count,EC50,BSC-1,-,<200 µg/mL
C=C[C@H](O)C1=C[C@@H](n2cnc3c(N)ncnc32)[C@H](O)[C@@H]1O,cytopathic effect,EC50,E6SM,B2006 (TK-),>100 µg/mL
Nc1ncnc2c1ncn2[C@@H]1O[C@H](CO)[C@@H](O)[C@@H]1O,cytopathic effect,EC50,HEP II,-,3.2 µg/mL
Nc1nc(=O)n(COCCO)cc1[N+](=O)[O-],cytopathic effect,EC50,PRK,-,>400 µg/mL
Nc1ncnc2c1ncn2N1CC[C@H](CO)[C@H]1CO,cytopathic effect,EC50,VERO,-,>100 µg/mL
NN1CC[N+]2(CC1)CC[N+]1(CCN(N)CC1)CC2,cytopathic effect,EC50,GMK,-,71.92 µg/mL
CCCc1nc2n(n1)C(c1ccc([N+](=O)[O-])cc1)CC(=O)N2,plaque count,EC50,VERO,7401H,>50 µg/mL
Nc1nc(Cl)c2ncn(COCCO)c2n1,cytopathic effect,EC50,PRK,-,2 µg/mL
CCCCCCCCCCCCOCCCOP1(=O)CO[C@@H](Cn2ccc(N)nc2=O)CO1,plaque count,EC50,HFF,F,0.9 µM

7 of the rows above, restated:

SMILES,method,read-out,cell line,strain,value
Nc1nc2c(nc(N)n2COCCO)c(=O)[nH]1,cytopathic effect,EC50,PRK,-,0.7 µg/mL
O=c1ccn(COCCO)c(=O)[nH]1,cytopathic effect,EC50,PRK,-,>400 µg/mL
Nc1nc(Cl)c2ncn(COCCO)c2n1,cytopathic effect,EC50,PRK,-,2 µg/mL
CCn1nc(Cc2n[nH]c(=S)o2)nc1C,-,MIC,-,TK (KOS ACV),>400 µg/mL
Nc1nc2c(ncn2N2C[C@H](CO)[C@H]2CO)c(=O)[nH]1,cytopathic effect,EC50,VERO,-,5.36 µg/mL
Nc1ccn(COCCO)c(=O)n1,cytopathic effect,EC50,PRK,-,70 µg/mL
Nc1nc2c(ncn2CC(CO)CCO)c(=O)[nH]1,plaque count,EC50,VERO,KJ502,0.3 µM